Results of unrelated studies side by side (data: NIAID ChemDB).

All rows: enzyme or target tests; organism: HIV-1; protein: Protease

Fold resistance has wild type as its base. ICn: concentration for n% inhibition. Rows are shuffled and stem from different studies. Percent inhibition refers to the dose given; in toxicity tests it is the harm to the cells.

{"compound": "CC(C)CN(C[C@@H](O)[C@H](Cc1ccccc1)NC(=O)[C@H](CC(N)=O)NC(=O)c1ccc2ccccc2n1)C(=O)NC(C)(C)C", "changes": "PR-A71T", "read-out": "fold resistance", "method": "HPLC", "value": "1"}
{"compound": "CC(C)[C@H](NC(=O)N(C)Cc1ccccn1)C(=O)N[C@@H](Cc1ccccc1)[C@H](O)[C@H](O)[C@H](Cc1ccccc1)NC(=O)[C@@H](NC(=O)N(C)Cc1ccccn1)C(C)C", "read-out": "IC50", "method": "fluorescence", "value": "<0.001 µM"}
{"compound": "O=c1c(O)c(-c2ccccc2O)oc2cc(O)cc(O)c12", "read-out": "inhibition", "method": "fluorescence", "tested at": "50 µg/mL", "value": "41.4%"}
{"compound": "NC(Cc1ccccc1)C(O)C(F)(F)C(N)Cc1ccccc1", "read-out": "inhibition", "method": "fluorescence", "tested at": "0.005 µM", "value": "92%"}
{"compound": "CNC(=O)[C@@H](NC(=O)[C@H](OCc1ccccc1)[C@H](O)[C@@H](O)[C@@H](OCc1ccccc1)C(=O)N[C@H]1c2ccccc2C[C@H]1O)C(C)C", "changes": "PR-V82A", "read-out": "fold resistance", "value": "2.78"}
{"compound": "CC(C)[C@H](NC(=O)OCc1cccnc1)C(=O)N[C@@H](Cc1ccccc1)[C@H](O)[C@H](O)[C@H](Cc1ccccc1)NC(=O)[C@@H](NC(=O)OCc1cccnc1)C(C)C", "read-out": "inhibition", "method": "fluorescence", "tested at": "0.001 µM", "value": "69%"}
{"compound": "CC(C)(C)OC(=O)N[C@@H](Cc1ccccc1)[C@H](O)CNC[C@@H](O)[C@H](Cc1ccc(OCC(=O)N2CCOCC2)cc1)NC(=O)OC(C)(C)C", "changes": "PR-V82A", "read-out": "fold resistance", "method": "HPLC", "value": "32"}
{"compound": "O=C1CC2C(=O)Oc3cc(cc(O)c3O)C(=O)O[C@@H]3O[C@@H]4COC(=O)c5cc(O)c(O)c(c5[C@H]2C(=O)O[C@@H]2[C@H]3OC(=O)c3cc(O)c(O)cc3-c3c(cc5nc6ccccc6nc5c3O)C(=O)O[C@@H]24)O1", "read-out": "inhibition", "method": "fluorescence", "tested at": "50 µg/mL", "value": "37.2%"}
{"compound": "CC(C)[C@H](NC(=O)N(C)Cc1ccccn1)C(=O)N[C@@H](Cc1ccccc1)[C@H](O)[C@H](O)[C@H](Cc1ccccc1)NC(=O)[C@@H](NC(=O)N(C)Cc1ccccn1)C(C)C", "changes": "PR-R8Q", "read-out": "fold resistance", "method": "fluorescence", "value": "32.1"}
{"compound": "CC(C)(C)OC(=O)N[C@@H](Cc1ccccc1)[C@@H](O)C[C@@H](Cc1ccc(OCCN2CCOCC2)cc1)C(=O)N[C@H]1c2ccccc2C[C@H]1O", "changes": "PR-M46I", "read-out": "fold resistance", "method": "fluorescence", "value": "1.06"}
{"compound": "CN1[C@H](COc2ccccc2)[C@H](O)[C@@H](O)[C@@H](COc2ccccc2)N(C)S1(=O)=O", "changes": "PR-V82A", "read-out": "fold resistance", "value": "4.23"}
{"compound": "C[C@@H]1O[C@@H](OC[C@H]2O[C@@H](Oc3c(-c4ccc(O)cc4)oc4cc(O[C@@H]5O[C@@H](C)[C@H](O)[C@@H](O)[C@H]5O)cc(O)c4c3=O)[C@H](O)[C@@H](O)[C@H]2O)[C@H](O)[C@H](O)[C@H]1O", "read-out": "inhibition", "method": "fluorescence", "tested at": "50 µg/mL", "value": "69.8%"}
{"compound": "CC(C)[C@H](NC(=O)OCc1ccccc1)C(=O)N[C@@H](Cc1ccccc1)[C@@H](O)[C@H](O)[C@H](Cc1ccccc1)NC(=O)[C@@H](NC(=O)OCc1ccccc1)C(C)C", "read-out": "inhibition", "method": "fluorescence", "tested at": "0.001 µM", "value": "74%"}
{"compound": "CC(=O)N[C@@H](CO)C(=O)N[C@@H](CC(C)C)C(=O)N[C@@H](CC(N)=O)C(=O)N[C@@H](Cc1ccccc1)B(O)O", "changes": "PR-M46I V82F I84V L90M", "read-out": "fold resistance", "method": "HPLC", "value": "18.75"}
{"compound": "CC(C)[C@H](NC(=O)OCc1ccccn1)C(=O)N[C@@H](Cc1ccccc1)[C@H](O)[C@H](O)[C@H](Cc1ccccc1)NC(=O)OC(C)(C)C", "read-out": "inhibition", "method": "fluorescence", "tested at": "0.005 µM", "value": "67%"}
{"compound": "Cc1cc(SC2=C(O)C[C@@](CCc3ccc(N)cc3)(C(C)C)OC2=O)c(C(C)(C)C)cc1CO", "changes": "PR-V82F I84V", "read-out": "fold resistance", "method": "HPLC / absorbance", "value": "5.3"}
{"compound": "CC(C)C[C@H](NC(=O)[C@@H](N)CO)C(=O)N[C@@H](CC(N)=O)C(=O)N[C@@H](Cc1ccccc1)B(O)O", "changes": "PR-M46I V82F I84V L90M", "read-out": "fold resistance", "method": "HPLC", "value": "7.67"}
{"compound": "Cc1cc(SC2=C(O)C[C@@](CCc3ccc(O)cc3)(C(C)C)OC2=O)c(C(C)(C)C)cc1CO", "changes": "PR-V82A", "read-out": "fold resistance", "method": "HPLC / absorbance", "value": "4.3"}
{"compound": "O=C1N(Cc2ccc(CO)cc2)[C@H](COc2ccccc2)[C@H](O)[C@@H](O)[C@@H](COc2ccccc2)N1Cc1ccc(CO)cc1", "changes": "PR-L10F I84V PR-L90M", "read-out": "fold resistance", "method": "fluorescence", "strain or isolate": "IIIB", "value": "0.739"}
{"compound": "O=C(/C=C/c1ccc(O)c(O)c1)c1ccc(O)cc1O", "read-out": "inhibition", "method": "HPLC", "tested at": "50 µg/mL", "value": "46.9%"}
{"compound": "O=S1(=O)N(Cc2cccc(I)c2)[C@H](COc2ccccc2)[C@H](O)[C@@H](O)[C@@H](COc2ccccc2)N1Cc1cccc(I)c1", "changes": "PR-I84V", "read-out": "fold resistance", "value": "1420"}
{"compound": "CC(C)[C@H](NC(=O)OCc1ccccc1)C(=O)NC(Cc1ccccc1)C(O)C(Cc1ccccc1)NC(=O)OC(C)(C)C", "read-out": "inhibition", "method": "fluorescence", "tested at": "0.01 µM", "value": "37%"}
{"compound": "CNC(=O)CN1[C@H](COc2ccccc2)[C@H](O)[C@@H](O)[C@@H](COc2ccccc2)N(CC(=O)NC)S1(=O)=O", "changes": "PR-G48V L90M", "read-out": "fold resistance", "value": "0.96"}
{"compound": "CC(C)[C@H](NC(=O)c1cccnc1)C(=O)NC(Cc1ccccc1)C(O)C(O)C(Cc1ccccc1)NC(=O)[C@@H](NC(=O)c1cccnc1)C(C)C", "read-out": "inhibition", "method": "fluorescence", "tested at": "0.005 µM", "value": "58%"}
{"compound": "CC(C)[C@H](NC(=O)c1ccc2ccccc2n1)C(=O)N[C@@H](Cc1ccccc1)[C@H](O)CN1CC[C@@H](SCc2cccnc2)C[C@H]1C(=O)NC(C)(C)C", "changes": "PR-I84V", "read-out": "fold resistance", "method": "fluorescence", "value": "15.9"}
{"compound": "COC(=O)c1ccc(CN2[C@H](COc3ccccc3)[C@H](O)[C@@H](O)[C@@H](COc3ccccc3)N(Cc3ccc(C(=O)OC)cc3)S2(=O)=O)cc1", "changes": "PR-I84V", "read-out": "fold resistance", "value": "17.9"}